Data: PubChem BioAssay AID977624 (Broad Institute, 2014)
This is a selection; strong and weak results do not stand in their true shares. Records with an inconclusive call do not appear. Activity calls are given as the source filed them.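 How the source made its calls: active means compound lowering the normal-ribosome reporter at least twice as much as the humanized-ribosome reporter, growth loss under a set limit; inconclusive means no clear call, values can overlap the other calls; inactive means the rest.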

assay: growth inhibition of wild-type GFP E. coli, dose response, h34 mutant RFP, cherry-pick (AID 977624); details: E. coli wild-type GFP strain growth, fluorescence, 24 h; at 50 µM (top of the series)

Structure (SMILES)	activity change, negative = inhibition
O=[N+]([O-])c1cc([N+](=O)[O-])c(Nc2ccccn2)c([N+](=O)[O-])c1	inactive: 12.4
O=[N+]([O-])c1cc([N+](=O)[O-])c(Nc2nnnn2CCO)c([N+](=O)[O-])c1	inactive: 15.7
